Results: patent publication US20240043504A1 (published 2024)

Columns and labels:
MERS.hFc (mAb2664-L1) = MERS.hFc (mAb2664-L1) (MERS-CoV); experiment: Luminex, supernatant
Bt-MERS.hFc (mAb2664-L2) = Bt-MERS.hFc (mAb2664-L2) (MERS-CoV); experiment: Luminex, supernatant
MERS.mFc (mAb2663-L1) = MERS.mFc (mAb2663-L1) (MERS-CoV); experiment: Luminex, supernatant
[1] = biological target: SARS-CoV-2-S-RBD-mmH (RBD of SARS-CoV-2 spike, amino acids 319-541, with a 6x histidine tag and two (SARS-CoV-2)); experiment: ELISA, RBD-mmH coated, supernatant 1:50, a-hFc detection

| Binder | MFI (MERS.hFc (mAb2664-L1)) [MFI] | MFI (Bt-MERS.hFc (mAb2664-L2)) [MFI] | MFI (MERS.mFc (mAb2663-L1)) [MFI] | Binding Signal (absorbance at 450 nm) [1] [absorbance at 450 nm] |
| --- | --- | --- | --- | --- |
| mAb10985 (antibody, V domains shown) VH: EVQLVESGGGLVQPGRSLRLSCAASGFTFDDYAMHWVRQAPGKGLEWVSGISWNRGSIGYADSVKGRFTISRDNAKNSLYLQMSSLRAEDTALYYCAKDGERWDSVVVPSARNGMDVWGQGTTVTVSS VL: QSVLTQPPSVSGAPGQRVTISCTGSSSNIGAGYDVHWYQQLPGTAPKLLIYGNSNRPSGVPDRFSGSKSGTSASLAITGLQAEDEADYYCQSYDSSLSGSYVFGTGTKVTVLG [mAb10985, listing 1 of 2 here] | 195 | 159 | 168 |  |
| mAb10934 (antibody, V domains shown) VH: not shown VL: DIQMTQSPSSLSASVGDRVTITCQASQDIWNYINWYQQKPGKAPKLLIYDASNLKTGVPSRFSGSGSGTDFTFTISSLQPEDIATYYCQQHDDLPPTFGQGTKVEIKR |  |  |  | 2.69 |
| mAb10935 (antibody, V domains shown) VH: EVQLVESGGGLVQPGGSLRLSCAASGFTVSSNYMSWVRQAPGKGLEWVSLIYSGGSTYYADSVKGRFTISRHNSKNTLYLQMNSLRSEDTAVYYCARVPLGDYYYGMDVWGQGTTVTVSS VL: DIQMTQSPSSLSASVGDRVTITCQASQDINKYLNWYQQKPGKAPKLLIYDASNLETGVPSRFSGSGSGTDFTFTISSLQPEDIATYYCQQSDNLPLTFGGGTKVEIKR [mAb10935, listing 1 of 2 here] |  |  |  | 2.68 |
| mAb10922 (antibody, V domains shown) VH: EVQLVESGGGLVQPGGSLRLSCAASGFTFSIYEMNWVRQAPGKGLEWVSYITSSGTTIYYADSVKGRFTISRDNAKNSLYLQMNSLRAEDTAVYYCASSSSSGYYFDYWGQGTLVTVSS VL: not shown |  |  |  | 2.6 |
| mAb10930 (antibody, V domains shown) VH: EVQLVESGGGLVQPGRSLRLSCAASGFTFDDYAMYWVRQAPGKGLEWVSGISWNSGSIGYADSVKGRFTISRDNAKNSLYLQMNSLRAADTALYYCAKDKDWNSRGYYYYGMDVWGQGTTVTVSS VL: not shown [mAb10930, listing 1 of 2 here] |  |  |  | 2.45 |
| mAb10938 (antibody, V domains shown) VH: EVQLVESGGGLVQPGGSLRLSCAVSGFTVSSNYMSWVRQAPGKGLEWVSLIYSGGSTFYADSVKGRFTISRHNSKNTLYLQMNSLRAEDTAVYYCAREGGYSYDYNYWGQGTLVTVSS VL: DIQMTQSPSSLSASVGDRVTITCQASQDIRNYLNWYQQKPGKAPKLLIYDASNLETGVPSRFSGIGSGTDFTFTISSLQPEDIATYYCQQYDNLPITFGQGTRLEIKR [mAb10938, listing 1 of 2 here] |  |  |  | 2.54 |
| mAb10939 (antibody, V domains shown) VH: EVQLVESGGGLVQPGGSLRLSCAASGLTVSSNYMNWVRQVPGKGLEWVSVIYSGGSKFYVDSVKGRFTISRHNSKNTLYLQMNSLRPEDTAVYYCTRDAQYYGMDVWGQGTTVTVSS VL: DIQMTQSPSSLSASVGDRVTITCRASQSISTYLHWYQQKPGEAPKLLIYAASSLQSGVPSRFSGSGSGTDFTLTISSLQPEDFATYYCQQSYSTPPEIFGQGTKLEIKR [mAb10939, listing 1 of 2 here] |  |  |  | 2.52 |
| mAb10982 (antibody, V domains shown) VH: EVQLVESGGGLVQPGGSLRLSCAASGLTVSSNYMSWVRQAPGKGLEWVSVIYSGGTTYYADSVKGRFTISRHNSKNTLSLQMNSLRAEDTAVYYCARGEGANYYGMDVWGQGTTVTVSS VL: QSVLTQPPSVSGAPGQRVTISCTGSSSNIGTGYDVHWYQQLPGTAPKLLIYGNSNRPSGVPDRFSGSKSGTSASLAITGLQAEDEADYYCQSYDSSLSGYVVFGGGTKLTVLG [mAb10982, listing 1 of 2 here] |  |  |  | 2.54 |
| mAb10984 (antibody, V domains shown) VH: EVQLVESGGGLVQPGGSLRLSCAASGLTVNRNYMSWVRQAPGKGLEWVSLIYSGGSTYYADSVKGRFTISRDNSKNTLYLQMNSLRLEDTAVYYCARGELGIPYGMDVWGQGTTVTVSS VL: QSVLTQPPSVSAAPGQKVTISCSGSSSNIGNNYVSWYQQLPGTAPKLLIYDNNKRPSGIPDRFSGSKSGTSATLGITGLQTGDEADYYCGTWDSSLSAGVFGGGTKLTVLG |  |  |  | 0.716 |
| mAb10985 (antibody, V domains shown) VH: EVQLVESGGGLVQPGRSLRLSCAASGFTFDDYAMHWVRQAPGKGLEWVSGISWNRGSIGYADSVKGRFTISRDNAKNSLYLQMSSLRAEDTALYYCAKDGERWDSVVVPSARNGMDVWGQGTTVTVSS VL: QSVLTQPPSVSGAPGQRVTISCTGSSSNIGAGYDVHWYQQLPGTAPKLLIYGNSNRPSGVPDRFSGSKSGTSASLAITGLQAEDEADYYCQSYDSSLSGSYVFGTGTKVTVLG [mAb10985, listing 2 of 2 here] |  |  |  | 2.35 |
| mAb10989 (antibody, V domains shown) VH: QVQLVQSGAEVKKPGASVKVSCKASGYIFTGYYMHWVRQAPGQGLEWMGWINPNSGGANYAQKFQGRVTLTRDTSITTVYMELSRLRFDDTAVYYCARGSRYDWNQNNWFDPWGQGTLVTVSS VL: QSALTQPASVSGSPGQSITISCTGTSSDVGTYNYVSWYQQHPGKAPKLMIFDVSNRPSGVSDRFSGSKSGNTASLTISGLQAEDEADYYCSSFTTSSTVVFGGGTKLTVLG |  |  |  | 3.12 |
| mAb10913 (antibody, V domains shown) VH: EVQLVESGGGLVQPGGSLRLSCAASGFTFRNYEMNWVRQAPGKGLEWVSYITSSGSTMYYADSVKGRFTISRDNAKNSLYLQMNSLRAEDTAVYYCARDGFYYYYAMDVWGQGTTVTVSS VL: QSVLTQPPSVSAAPGQKVTISCSGSSSNIGNNYVSWYQQLPGTAPKLLIYDNNKRPSGIPDRFSGSKSGTSATLGITGLQTGDEADYYCGTWDSSLSVGRVFGTGTKVTVLG | 28 | 29 | 29 |  |
| mAb10914 (antibody, V domains shown) VH: EVQLVESGGGLVQPGGSLRLSCAASGLIVSRNYMIWVRQAPGKGLEWVSVIYSGGSTFYADSVKGRFTISRHNSKNTLYLQMNSLRAEDTAVYYCARDLGTGGMDVWGQGTTVTVSS VL: DIQLTQSPSFLSASVGDRVTITCWASQGISSYLAWYQQKPGKAPKLLIYAASTLQSGVPSRFSGSGSGTEFTLTISSLQPEDFATYYCQQLNSYPLTFGGGTKVEIKR | 71 | 49 | 86 |  |
| mAb10932 (antibody, V domains shown) VH: EVQLVESGGGLVQSGGSLRLSCAASGLTVSSNYMSWVRQAPGKGLEWVSVIYSGGSTFYSDSVKGRFTISRHNSKNTLYLQMNSLRAEDTAVYYCARARGDAFDIWGQGTMVTVSS VL: DIQMTQSPSSLSASVGDRVTITCQASQGISNYLNWYQQKPGKAPKLLISDASNLETGVPSRFSGSGSGTDFTFTISSLQPEDIATYYCQQYDNLRFFTFGPGTKVDIKR | 49 | 40 | 60 |  |
| mAb10933 (antibody, V domains shown) VH: QVQLVESGGGLVKPGGSLRLSCAASGFTFSDYYMSWIRQAPGKGLEWVSYITYSGSTIYYADSVKGRFTISRDNAKSSLYLQMNSLRAEDTAVYYCARDRGTTMVPFDYWGQGTLVTVSS VL: DIQMTQSPSSLSASVGDRVTITCQASQDITNYLNWYQQKPGKAPKLLIYAASNLETGVPSRFSGSGSGTDFTFTISGLQPEDIATYYCQQYDNLPLTFGGGTKVEIKR | 21 | 26 | 22 |  |
| mAb10935 (antibody, V domains shown) VH: EVQLVESGGGLVQPGGSLRLSCAASGFTVSSNYMSWVRQAPGKGLEWVSLIYSGGSTYYADSVKGRFTISRHNSKNTLYLQMNSLRSEDTAVYYCARVPLGDYYYGMDVWGQGTTVTVSS VL: DIQMTQSPSSLSASVGDRVTITCQASQDINKYLNWYQQKPGKAPKLLIYDASNLETGVPSRFSGSGSGTDFTFTISSLQPEDIATYYCQQSDNLPLTFGGGTKVEIKR [mAb10935, listing 2 of 2 here] | 67 | 42 | 74 |  |
| mAb10920 (antibody, V domains shown) VH: QVQLVESGGGVVQPGRSLRLSCAASGFTFSYYGMHWVRQAPGKGLEWVAVIWYDGSNKFYADSVKGRFTISRDNSKNTLYLQMNSLRAEDTAVYYCAAARPGYYYGMDVWGQGTTVTVSS VL: DIQMTQSPSSLSASVGDRVTITCRASQGISNYLAWFQQKPGKAPNSLIYAASSLQRGVPSKFSGSGSGTDFTLTISSLQPEDFATYYCQQYNSYPRTFGQGTKVEIKR | 35 | 44 | 38 |  |
| mAb10930 (antibody, V domains shown) VH: EVQLVESGGGLVQPGRSLRLSCAASGFTFDDYAMYWVRQAPGKGLEWVSGISWNSGSIGYADSVKGRFTISRDNAKNSLYLQMNSLRAADTALYYCAKDKDWNSRGYYYYGMDVWGQGTTVTVSS VL: not shown [mAb10930, listing 2 of 2 here] | 24 | 29 | 29 |  |
| mAb10938 (antibody, V domains shown) VH: EVQLVESGGGLVQPGGSLRLSCAVSGFTVSSNYMSWVRQAPGKGLEWVSLIYSGGSTFYADSVKGRFTISRHNSKNTLYLQMNSLRAEDTAVYYCAREGGYSYDYNYWGQGTLVTVSS VL: DIQMTQSPSSLSASVGDRVTITCQASQDIRNYLNWYQQKPGKAPKLLIYDASNLETGVPSRFSGIGSGTDFTFTISSLQPEDIATYYCQQYDNLPITFGQGTRLEIKR [mAb10938, listing 2 of 2 here] | 65 | 46 | 86 |  |
| mAb10939 (antibody, V domains shown) VH: EVQLVESGGGLVQPGGSLRLSCAASGLTVSSNYMNWVRQVPGKGLEWVSVIYSGGSKFYVDSVKGRFTISRHNSKNTLYLQMNSLRPEDTAVYYCTRDAQYYGMDVWGQGTTVTVSS VL: DIQMTQSPSSLSASVGDRVTITCRASQSISTYLHWYQQKPGEAPKLLIYAASSLQSGVPSRFSGSGSGTDFTLTISSLQPEDFATYYCQQSYSTPPEIFGQGTKLEIKR [mAb10939, listing 2 of 2 here] | 27 | 30 | 41 |  |
| mAb10982 (antibody, V domains shown) VH: EVQLVESGGGLVQPGGSLRLSCAASGLTVSSNYMSWVRQAPGKGLEWVSVIYSGGTTYYADSVKGRFTISRHNSKNTLSLQMNSLRAEDTAVYYCARGEGANYYGMDVWGQGTTVTVSS VL: QSVLTQPPSVSGAPGQRVTISCTGSSSNIGTGYDVHWYQQLPGTAPKLLIYGNSNRPSGVPDRFSGSKSGTSASLAITGLQAEDEADYYCQSYDSSLSGYVVFGGGTKLTVLG [mAb10982, listing 2 of 2 here] | 60 | 42 | 64 |  |
